Laboratory results: article PMC8284666, “Biochemical characterization of protease activity of Nsp3 from SARS-CoV-2 and its inhibition by nanobodies” (PLoS ONE, 2021)

Tested on: panel of 42 human DUBs and the viral ovarian tumor (vOTU)
Settings: tested at 10 and 1 μM; result in words

CC(Cc1ccc(O)c(O)c1)C(C)Cc1ccc(O)c(O)c1 (stereo not shown) [Nordihydroguaiaretic acid]
selectivity / off-target inhibition in the DUB panel: inhibited–at different extents–several other human DUBs
